Compound potency records, mixed from different reports. Data source: NIAID ChemDB in PubChem.

Shared fields: tests on isolated targets; species: HIV-2; protein: Reverse transcriptase; endpoint: IC50

Lines come from different laboratories, so protocols vary.

smiles,strain or isolate,changes,method,value
CCOCn1c(Sc2ccccc2)c(CC)c(=O)[nH]c1=O,-,-,nucleotide incorporation,>100 µM
CCOCn1c(Cc2ccccc2)c(C(C)C)c(=O)[nH]c1=O,EHO,-,nucleotide incorporation,>1656 µM
CCN1c2cc(C)c(C)cc2N(C)S(=O)(=O)c2cccnc21,-,-,-,>350 µM
CC(=O)O[C@H]1c2c(c3c(c4c(-c5ccccc5)cc(=O)oc24)OC(C)(C)C=C3)O[C@H](C)[C@H]1C,-,RT-Y181C,scintillation proximity / radiometric,0.21 µM
CCOCn1c(Cc2cc(C)cc(C)c2)c(CC)c(=O)[nH]c1=O,ROD,-,-,>500 µM
C/C=C/CSc1cc(NC(=S)c2ccsc2C)ccc1Cl,-,-,-,>100 µM
Nc1nc2c(ncn2[C@H]2CC[C@@H](COP(=O)(O)OP(=O)(O)OP(=O)(O)O)O2)c(=O)[nH]1,-,-,nucleotide incorporation,0.055 µg/mL
Cc1c(Sc2ccccc2)n(COCCO)c(=O)[nH]c1=O,-,-,nucleotide incorporation,>10 µM
CCc1cc(CCc2nc3c(Cl)ccc(Cl)c3o2)c(=S)[nH]c1C,-,-,-,>300 µM
O=C1c2ccccc2C2(c3ccccc3)SCCN12,-,-,ELISA,>200 µM
COC(=O)C(Cc1ccccc1)NC(=O)[C@@H](NC(=O)[C@@H](C[C@H](O)[C@H](CC1CCCCC1)NC(=O)[C@@H](NC(=O)[C@H](Cc1ccccc1)CS(=O)(=O)C(C)(C)C)C(C)C)C(C)C)C(C)C,EHO,RT-S102L E219D,nucleotide incorporation,>1553 µM
C=C(Cc1ccc2c(c1)OCO2)C(=C)Cc1ccc(O)cc1O,-,-,-,156.9 µg/mL
Fc1cccc(F)c1C1SCc2nc3ccccc3n21,-,-,nucleotide incorporation,>300 µM
CC(=O)c1ccc(C)cc1NC(C(N)=O)c1c(Cl)cccc1Cl,EHO,RT-S102L E219D,nucleotide incorporation,>1425 µM
COc1ccc(OC)c2c(=O)c(O)c[nH]c12,-,-,radiometric,4.03 µM
Cc1occc1C(=S)Nc1ccc(Cl)c(/C=N/OC(C)(C)C)c1,-,-,-,>100 µM
CC(C)=CCN1C(=O)c2cccn2-c2ccc(Cl)cc2S1(=O)=O,-,-,RT activity,>30 µM
C=CC1=C(N)C2(OS1(=O)=O)[C@@H](CO[Si](C)(C)C(C)(C)C)O[C@@H](n1cc(C)c(=O)[nH]c1=O)[C@@H]2O[Si](C)(C)C(C)(C)C,-,-,nucleotide incorporation,>500 µM
CNc1ccc(Cl)cc1S(=O)(=O)c1ccccc1[N+](=O)[O-],WT,-,-,>100 µM

For reference, 3 entries again:

smiles | strain or isolate | changes | method | value
C=C(Cc1ccc2c(c1)OCO2)C(=C)Cc1ccc(O)cc1O | - | - | - | 156.9 µg/mL
C/C=C/CSc1cc(NC(=S)c2ccsc2C)ccc1Cl | - | - | - | >100 µM
COc1ccc(OC)c2c(=O)c(O)c[nH]c12 | - | - | radiometric | 4.03 µM

An empty or dashed field is not shown. ICn: concentration for n% inhibition.